Results of unrelated studies side by side (data: NIAID ChemDB).

Shared fields: whole-cell or culture tests; species: HIV-2; measure: EC50

Blank or dashed fields: not listed here.

smiles | strain or isolate | cell line | read by | value
Cc1cc(C#N)cc(C)c1Oc1nc(NC2CCN(S(C)(=O)=O)CC2)nc2ccsc12 | ROD | MT-4 | MTT | >22.21 µM
COc1c(Cl)cc(C(=CCNC(=O)C[C@H]2CC[C@]3(C)C4CC[C@@]5(C)C(CC[C@@H]5CC(=O)NCC=C(c5cc(Cl)c(OC)c(C(=O)O)c5)c5cc(Cl)c(OC)c(C(=O)O)c5)C4CC[C@H]3C2)c2cc(Cl)c(OC)c(C(=O)O)c2)cc1C(=O)O | ROD | CEM + CEM-SS | cytopathic effect / MTT | 70 µM
N#Cc1ccc(Nc2nc(Oc3c(Cl)cc(Cl)cc3Cl)ncc2N)cc1 | ROD | MT-4 | MTT | >26 µM
Cc1cc(C#N)cc(C)c1Oc1nc(NC2CCN(S(=O)(=O)c3ccc(-c4ccccc4)cc3)CC2)nc2ccsc12 | ROD | MT-4 | MTT | >209.8 µM
Nc1sccc1S(=O)(=O)c1ccc(Cl)cc1 | ROD | CEM + CEM/O | cytopathic effect / MTT | >20 µg/mL
Cc1cc(C#N)cc(C)c1Oc1nc(NC2CCN(S(=O)(=O)N3CCOCC3)CC2)nc2ccsc12 | ROD | MT-4 | MTT | >236.4 µM
Cc1ccc(C(C)S(=O)(=O)c2c(C)ccc[n+]2[O-])c(C)c1 | ROD | CEM | cytopathic effect | >100 µg/mL
N#Cc1ccc(Nc2nc(Oc3c(Cl)cc(Cl)cc3Cl)ncc2NC(=O)C(F)(F)F)cc1 | ROD | MT-4 | MTT | 5 µM
CCOC(=O)CNc1nc(NC(=O)Nc2ccc(C)cc2)nc(Oc2cc(=O)oc3ccccc23)n1 | ROD | MT-4 | MTT | >11.27 µg/mL
Cc1ccc(S(=O)(=O)NC(C)c2nnc(SCc3ccccc3)o2)cc1 | ROD | MT-4 |  | >59.58 µg/mL
CC(=O)Nc1sccc1S(=O)(=O)c1ccccc1[N+](=O)[O-] | ROD | CEM + CEM/O | cytopathic effect / MTT | >1.6 µg/mL
O=C(O)CN(CCOCCOCCN1CC2c3cc4c5c6c3-c3c(cc7c8c3C63CN(CCOCCOCCN(CC(=O)O)CC(=O)O)CC36c3c-5c(cc5ccc9cc(c-8c6c9c35)C7)C4)C2C1)CC(=O)O | ROD | CEM | cytopathic effect | >4 µM
CCOC(=O)CNc1nc(Nc2ccc(OC)cc2)nc(Oc2cc(=O)oc3ccccc23)n1 | ROD | MT-4 | MTT | >58.6 µg/mL
COc1c(Cl)cc(C(=CCCCCN(C(=O)C=C(c2cc(Cl)c(OC)c(C(=O)O)c2)c2cc(Cl)c(OC)c(C(=O)O)c2)[C@H]2CC[C@]3(C)C4CC[C@@]5(C)C(CC[C@@H]5C(C)CCCC(C)C)C4CC[C@H]3C2)c2cc(Cl)c(OC)c(C(=O)O)c2)cc1C(=O)O | ROD | MT-4 | cytopathic effect / MTT | 8.2 µM
COc1ncnc(NS(=O)(=O)c2ccc(N=C3C(=O)N(CN4CCCCC4)c4ccc(C)cc43)cc2)c1OC | ROD | MT-4 | cytopathic effect / MTT | >12.6 µg/mL
COC(=O)c1ccccc1S(=O)(=O)c1ccsc1NC(=O)C(F)(F)F | ROD | CEM + CEM/O | cytopathic effect / MTT | >20 µg/mL
CSCO[C@]1(C)COC(C)(CC(=O)OC[C@@H]2C=C[C@H](n3cnc4c(N)ncnc43)O2)C1 |  | CEM + CEM/O | cytopathic effect | 40 µM
COc1cc(/C=C/c2nc(NC(=O)Nc3ccccc3)c3ccccc3n2)cc(OC)c1OC | ROD | MT-4 | MTT | >2.13 µg/mL
CC(C)Nc1ncnc2c1ncn2C1C[C@H](CO)[C@@H](CO)C1 |  | CEM |  | >100 µg/mL
CC(=O)c1ccc(S(=O)(=O)N2CCC(Nc3nc(Oc4c(C)cc(C#N)cc4C)c4sccc4n3)CC2)cc1 | ROD | MT-4 | MTT | >21.98 µM
CC(Oc1nsnc1-c1cccc2ccccc12)C(=O)Nc1ccccc1F | ROD | MT-4 | MTT | >52 µM
COC(=O)[C@H](C)NP(=O)(OC[C@@H]1C=C[C@H](n2cc(C)c(=O)[nH]c2=O)O1)Oc1ccccc1 | ROD | CEM + CEM/0 |  | 0.102 µM
COc1cc(/C=C/c2nc(NC(=O)Nc3ccc(Cl)cc3)c3ccccc3n2)cc(OC)c1OC | ROD | MT-4 | MTT | >4.97 µg/mL
Cc1ccc(C)c(C(Cl)S(=O)(=O)c2cc(C)cc[n+]2[O-])c1 | ROD | CEM | cytopathic effect | >4 µg/mL
CC(=O)Nc1sccc1S(=O)(=O)c1ccc(Cl)cc1 | ROD | CEM + CEM/O | cytopathic effect / MTT | >40 µg/mL
CCOC(=O)c1ccc(NC(=O)COc2nsnc2-c2cccc3ccccc23)c(Br)c1 | ROD | MT-4 | MTT | >98 µM
COc1cc(/C=C/c2nc(NC(=O)Nc3ccc([N+](=O)[O-])cc3)c3ccccc3n2)cc(OC)c1OC | ROD | MT-4 | MTT | >1.72 µg/mL
Cc1cc(C#N)cc(C)c1Oc1nc(NC2CCN(S(=O)(=O)c3ccc([N+](=O)[O-])cc3)CC2)nc2ccsc12 | ROD | MT-4 | MTT | >81.73 µM
Cc1ccc(S(=O)(=O)NC(Cc2ccccc2)c2nnc(SCc3ccc(Cl)cc3)o2)cc1 | ROD | MT-4 |  | >99.4 µg/mL
Cc1cc(C#N)cc(C)c1Oc1nc(Nc2ccc(NS(=O)(=O)c3ccc4oc(=O)ccc4c3)cc2)nc2ccsc12 | ROD | MT-4 | MTT | >209.8 µM
O=C(Nc1sc(Br)cc1S(=O)(=O)c1ccc(Cl)cc1)C(F)(F)F | ROD | CEM + CEM/O | cytopathic effect / MTT | >8 µg/mL
CSCCC(NS(=O)(=O)c1ccc(C)cc1)c1nnc(SCc2ccc(F)cc2)o1 | ROD | MT-4 |  | >0.5 µg/mL
COC(=O)c1ccc(NC(=O)COc2nsnc2-c2cccc3ccccc23)cc1 | ROD | MT-4 | MTT | >4.9 µM
COc1cc(/C=C/c2nc(NC(=S)Nc3ccccc3C)c3ccccc3n2)cc(OC)c1OC | ROD | MT-4 | MTT | >4.05 µg/mL
Cc1ccc(NC(=O)COc2nsnc2-c2cccc3ccccc23)c([N+](=O)[O-])c1 | ROD | MT-4 | MTT | >29 µM
O=C(CCC(CCC(=O)NCCc1c[nH]c2ccccc12)(CCC(=O)NCCc1c[nH]c2ccccc12)NC(=O)CCOCC(COCCC(=O)NC(CCC(=O)NCCc1c[nH]c2ccccc12)(CCC(=O)NCCc1c[nH]c2ccccc12)CCC(=O)NCCc1c[nH]c2ccccc12)(COCCC(=O)NC(CCC(=O)NCCc1c[nH]c2ccccc12)(CCC(=O)NCCc1c[nH]c2ccccc12)CCC(=O)NCCc1c[nH]c2ccccc12)COCCC(=O)NC(CCC(=O)NCCc1c[nH]c2ccccc12)(CCC(=O)NCCc1c[nH]c2ccccc12)CCC(=O)NCCc1c[nH]c2ccccc12)NCCc1c[nH]c2ccccc12 | ROD | CD4+ T-cell | MTS | 77 µM
COc1cc(/C=C/c2nc(NC(=O)Nc3ccccc3C)c3ccccc3n2)cc(OC)c1OC | ROD | MT-4 | MTT | >1.89 µg/mL
COc1ncnc(NS(=O)(=O)c2ccc(N=C3C(=O)N(CN4CCCC4)c4ccc(C)cc43)cc2)c1OC | ROD | MT-4 | cytopathic effect / MTT | >21.1 µg/mL
O=c1[nH]c(=O)n(C2C[C@H](CO)[C@@H](CO)C2)cc1I |  | CEM |  | >100 µg/mL
Nc1sccc1S(=O)(=O)c1ccccc1[N+](=O)[O-] | ROD | CEM + CEM/O | cytopathic effect / MTT | >20 µg/mL
CC(Oc1nsnc1-c1cccc2ccccc12)C(=O)Nc1ccccc1Cl | ROD | MT-4 | MTT | >17 µM
COc1ccccc1NC(=O)Nc1nc(NCCc2ccc(OC)c(OC)c2)nc(Oc2cc(=O)oc3ccccc23)n1 | ROD | MT-4 | MTT | >25.48 µg/mL
COc1ncnc(NS(=O)(=O)c2ccc(N=C3C(=O)N(CN4CCOCC4)c4ccc(C)cc43)cc2)c1OC | ROD | MT-4 | cytopathic effect / MTT | >9.3 µg/mL
CCCCCCC(C)[C@H]1CCC2C3CC[C@H]4C[C@@H](CCC=C(c5cc(Cl)c(O)c(C(=O)O)c5)c5cc(Cl)c(O)c(C(=O)O)c5)CC[C@]4(C)C3CC[C@@]21C | ROD | CEM + CEM-SS | cytopathic effect / MTT | 4 µM
CSCCC(NS(=O)(=O)c1ccc(C)cc1)c1nnc(SCc2ccccc2)o1 | ROD | MT-4 |  | >30.48 µg/mL
O=C(Nc1sc(I)cc1S(=O)(=O)c1ccc(Cl)cc1)C(F)(F)F | ROD | CEM + CEM/O | cytopathic effect / MTT | >8 µg/mL
CCOC(=O)CNc1nc(NC(=O)Nc2ccccc2C)nc(Oc2cc(=O)oc3ccccc23)n1 | ROD | MT-4 | MTT | >75.53 µg/mL
O=S(=O)(Cc1c(Cl)c(Cl)c(Cl)c(Cl)c1Cl)c1cccc[n+]1[O-] | ROD | CEM | cytopathic effect | 1 µg/mL
COc1cc(/C=C/c2nc(NC(=S)Nc3ccc(Cl)cc3)c3ccccc3n2)cc(OC)c1OC | ROD | MT-4 | MTT | >1.73 µg/mL
CC(NS(=O)(=O)c1ccc(Cl)cc1)c1nnc(SCc2ccc(Br)cc2)o1 | ROD | MT-4 |  | >12.33 µg/mL
CCc1nc(NCN2C(=O)C(=Nc3ccc(S(=O)(=O)Nc4ncnc(OC)c4OC)cc3)c3ccccc32)nc(N)c1-c1ccc(Cl)cc1 | ROD | MT-4 | cytopathic effect / MTT | >2 µg/mL
Cc1ccc(C)c(C(C)S(=O)(=O)c2c(C)ccc[n+]2[O-])c1 | ROD | CEM | cytopathic effect | >20 µg/mL
COc1ccc(CCNc2nc(NC(=O)Nc3ccccc3)nc(Oc3cc(=O)oc4ccccc34)n2)cc1OC | ROD | MT-4 | MTT | >86.93 µg/mL
COc1c(Cl)cc(C(=CCCCCN[C@@H]2CC[C@]3(C)C4CC[C@@]5(C)C(CC[C@@H]5C(C)CCCC(C)C)C4CC[C@H]3C2)c2cc(Cl)c(OC)c(C(=O)O)c2)cc1C(=O)O | ROD | CEM + CEM-SS | cytopathic effect / MTT | >150 µM
Cc1cc(C=O)cc(C)c1Oc1ncc([N+](=O)[O-])c(Nc2ccc(C#N)cc2)n1 | ROD | MT-4 | MTT | >37 µM
CC(NS(=O)(=O)c1ccc(Cl)cc1)c1nnc(SCc2ccc(F)cc2)o1 | ROD | MT-4 |  | >58.75 µg/mL
CCCCCCCCCCCCCCCCCCOP(=O)(OCCCC)OP(=O)(O)OP(=O)(O)OP(=O)(O)OC[C@@H]1C=C[C@H](n2cc(C)c(=O)[nH]c2=O)O1 | ROD | CD4+ T-cell | syncytia / visual reading | 0.041 µM
OCC(O)C(O)C(O)c1nnc2sc(-c3ccc(Cl)c(Cl)c3)nn12 |  | MT-4 | MTT | 17.3 µg/mL
Cc1cn([C@H]2C=C[C@@H](CO)O2)c(=O)[nH]c1=O |  | CEM + CEM TK- | cytopathic effect | 55 µM
CCOC(=O)CNc1nc(NC(=O)Nc2ccccc2Cl)nc(Oc2cc(=O)oc3ccccc23)n1 | ROD | MT-4 | MTT | >78.8 µg/mL
O=c1[nH]cnc2c1ncn2C1C[C@H](CO)[C@@H](CO)C1 |  | CEM |  | >100 µg/mL
COc1ccc(NC(=S)Nc2nc(/C=C/c3cc(OC)c(OC)c(OC)c3)nc3ccccc23)cc1 | ROD | MT-4 | MTT | >4.43 µg/mL
CCOC(=O)CNc1nc(NC(=O)Nc2ccc3ccccc3c2)nc(Oc2cc(=O)oc3ccccc23)n1 | ROD | MT-4 | MTT | >125 µg/mL

For reference, 7 entries again:

COc1ccc(NC(=S)Nc2nc(/C=C/c3cc(OC)c(OC)c(OC)c3)nc3ccccc23)cc1 ; strain or isolate: ROD ; cell line: MT-4 ; read by: MTT ; value: >4.43 µg/mL
CC(=O)Nc1sccc1S(=O)(=O)c1ccc(Cl)cc1 ; strain or isolate: ROD ; cell line: CEM + CEM/O ; read by: cytopathic effect / MTT ; value: >40 µg/mL
COc1ccc(CCNc2nc(NC(=O)Nc3ccccc3)nc(Oc3cc(=O)oc4ccccc34)n2)cc1OC ; strain or isolate: ROD ; cell line: MT-4 ; read by: MTT ; value: >86.93 µg/mL
CC(=O)Nc1sccc1S(=O)(=O)c1ccccc1[N+](=O)[O-] ; strain or isolate: ROD ; cell line: CEM + CEM/O ; read by: cytopathic effect / MTT ; value: >1.6 µg/mL
COC(=O)c1ccc(NC(=O)COc2nsnc2-c2cccc3ccccc23)cc1 ; strain or isolate: ROD ; cell line: MT-4 ; read by: MTT ; value: >4.9 µM
O=C(CCC(CCC(=O)NCCc1c[nH]c2ccccc12)(CCC(=O)NCCc1c[nH]c2ccccc12)NC(=O)CCOCC(COCCC(=O)NC(CCC(=O)NCCc1c[nH]c2ccccc12)(CCC(=O)NCCc1c[nH]c2ccccc12)CCC(=O)NCCc1c[nH]c2ccccc12)(COCCC(=O)NC(CCC(=O)NCCc1c[nH]c2ccccc12)(CCC(=O)NCCc1c[nH]c2ccccc12)CCC(=O)NCCc1c[nH]c2ccccc12)COCCC(=O)NC(CCC(=O)NCCc1c[nH]c2ccccc12)(CCC(=O)NCCc1c[nH]c2ccccc12)CCC(=O)NCCc1c[nH]c2ccccc12)NCCc1c[nH]c2ccccc12 ; strain or isolate: ROD ; cell line: CD4+ T-cell ; read by: MTS ; value: 77 µM
Cc1ccc(C)c(C(Cl)S(=O)(=O)c2cc(C)cc[n+]2[O-])c1 ; strain or isolate: ROD ; cell line: CEM ; read by: cytopathic effect ; value: >4 µg/mL

Conditions beyond the fields shown may differ between rows. ECn: concentration that inhibits the pathogen or its effect by n%.